Measured values reported in patent publication US20060110801A1 (WISCONSIN ALUMNI RESEARCH FOUNDATION, published 2006).

Molecular target: T1, T7-ATR41-227 (fusion protein having a hexahistidine tag, a T7 tag, and amino acids 41 to 227 of ATR) (human, UniProt Q9H6X2 41-227)
T1 construct: also called the I domain; extracellular fragment of ATR
T1 sequence: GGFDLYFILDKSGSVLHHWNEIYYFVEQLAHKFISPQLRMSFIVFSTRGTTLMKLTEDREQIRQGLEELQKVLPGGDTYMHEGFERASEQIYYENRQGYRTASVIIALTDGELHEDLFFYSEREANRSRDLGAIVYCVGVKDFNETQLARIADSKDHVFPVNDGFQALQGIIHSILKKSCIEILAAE
Assay: pull-down on glutathione sepharose, Western blot with anti-T7-HRP

B1: GST-D4 (fusion protein containing GST and the PA receptor-binding domain (D4)) (other)
chain: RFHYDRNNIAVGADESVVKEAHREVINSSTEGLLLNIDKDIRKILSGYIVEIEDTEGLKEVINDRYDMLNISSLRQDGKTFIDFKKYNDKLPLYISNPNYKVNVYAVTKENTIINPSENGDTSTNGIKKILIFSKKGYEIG
- binding result: binds
